{"source": "PubChem BioAssay AID720706", "about": "(Broad Institute, 2013)", "note": "The entries are a selection whose mix differs from that of the whole data set. The source made the active and inactive calls.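 How the source made its calls: active means significant combined selectivity score with lowered wild-type GFP, culture density cut under 30%, mutant RFP and density less affected; inactive means any of these conditions unmet.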"}
{"test": "GFP drop in mixed WT/humanized-ribosome E. coli culture – GFP/RFP fluorescence, OD600, single point, bacterial rRNA inhibitor project, primary screen (AID 720706)", "conditions": "E. coli WT GFP vs humanized-ribosome RFP mutants, 24 h, stronger effect = lower value, DMSO median 0, no signal -100"}
{"molecule": "CC(C)c1ccc(OP(=O)(Nc2ccccn2)Oc2ccccc2F)cc1", "note": "(configuration not stated)", "GFP signal change (wild-type ribosome)": "inactive: -5.63%"}
{"molecule": "COc1ccccc1OP(C)(=O)Nc1cc(Cl)ccc1C", "note": "(configuration not stated)", "GFP signal change (wild-type ribosome)": "inactive: -18.1%"}
{"molecule": "CC(C)NC(=O)NP(=O)(Oc1ccccc1)Oc1ccccc1", "GFP signal change (wild-type ribosome)": "inactive: 13.6%"}
{"molecule": "O=C(OC1CN2CCC1CC2)c1cccc2[nH]cnc12", "note": "(configuration not stated)", "GFP signal change (wild-type ribosome)": "inactive: 3.66%"}
{"molecule": "Cc1cc(C)cc(OP(C)(N)=O)c1", "note": "(configuration not stated)", "GFP signal change (wild-type ribosome)": "inactive: 12.4%"}
{"molecule": "O=[N+]([O-])c1cc([N+](=O)[O-])c(Nc2cccnc2)c([N+](=O)[O-])c1", "GFP signal change (wild-type ribosome)": "inactive: -25%"}
{"molecule": "C[As](=O)(O)c1cccc(C(=O)O)c1", "GFP signal change (wild-type ribosome)": "inactive: 7.12%"}
{"molecule": "O=[As](O)(c1ccc(O)cc1)c1ccccc1O", "GFP signal change (wild-type ribosome)": "inactive: 14.6%"}
{"molecule": "O=[N+]([O-])c1ccc(-c2cc([N+](=O)[O-])c(O)c([N+](=O)[O-])c2)cc1", "GFP signal change (wild-type ribosome)": "inactive: -68.9%"}
{"molecule": "COc1cc(C(=O)NCC2(N3CCOCC3)CCCCC2)ccc1OCC(C)C", "GFP signal change (wild-type ribosome)": "inactive: -0.36%"}
{"molecule": "[N-]=[N+]=NC1CCCCC1NC(=O)c1cc([N+](=O)[O-])cc([N+](=O)[O-])c1", "note": "(configuration not stated)", "GFP signal change (wild-type ribosome)": "inactive: 6.54%"}
{"molecule": "Cc1ccc(OP(=O)(Nc2ccc([N+](=O)[O-])cn2)Oc2ccc(C)cc2)cc1", "GFP signal change (wild-type ribosome)": "inactive: 8.22%"}
{"molecule": "CC(C)(C)c1ccc(OP(C)(=O)Nc2ccc(SC(F)(F)F)cc2)cc1", "note": "(configuration not stated)", "GFP signal change (wild-type ribosome)": "inactive: 4.12%"}
{"molecule": "Cc1cccc(C)c1OP(C)(N)=O", "note": "(configuration not stated)", "GFP signal change (wild-type ribosome)": "inactive: 13.6%"}
{"molecule": "O=[N+]([O-])c1ccc2c(c1)C=Nc1ccccc1O2", "GFP signal change (wild-type ribosome)": "inactive: -30.8%"}
{"molecule": "Cc1ccc2nc3c(c(C)c2c1)CC(C(Cl)Cl)S3", "note": "(configuration not stated)", "GFP signal change (wild-type ribosome)": "inactive: 3.21%"}
{"molecule": "COc1ccc(N/C(=N/P(=O)(N2CCOCC2)N2CCOCC2)N2CCOCC2)cc1", "GFP signal change (wild-type ribosome)": "inactive: 5.67%"}
{"molecule": "COc1ccccc1-c1ccccn1.O=[N+]([O-])c1cc([N+](=O)[O-])c(O)c([N+](=O)[O-])c1", "GFP signal change (wild-type ribosome)": "inactive: 0.045%"}
{"molecule": "Cc1c2c(nc3ccccc13)SC(C(Cl)Cl)C2", "note": "(configuration not stated)", "GFP signal change (wild-type ribosome)": "inactive: -54.5%"}
{"molecule": "Cc1cc(=O)[nH]c(N[N+](=O)[O-])n1", "GFP signal change (wild-type ribosome)": "inactive: 13.2%"}
{"molecule": "CCN(CC)CCCOC(=O)C(O)(c1ccccc1)c1ccccc1", "GFP signal change (wild-type ribosome)": "inactive: 4.29%"}
{"molecule": "O=P1(N(CCCl)CCCl)OCCCN1CCCl", "note": "(configuration not stated)", "GFP signal change (wild-type ribosome)": "inactive: 14.7%"}
{"molecule": "O=P1(N(CCCl)CCCl)Nc2ccccc2N1", "GFP signal change (wild-type ribosome)": "inactive: 4.09%"}
{"molecule": "COc1ccc2nc(NP(=O)(c3ccccc3)c3ccccc3)sc2c1", "GFP signal change (wild-type ribosome)": "inactive: 3.93%"}
{"molecule": "COc1cc(I)ccc1[As](=O)(O)O", "GFP signal change (wild-type ribosome)": "inactive: 6.31%"}
{"molecule": "O=C(OC1CN2CCC1CC2)c1cccc([N+](=O)[O-])c1", "note": "(configuration not stated)", "GFP signal change (wild-type ribosome)": "inactive: 5.96%"}
{"molecule": "CCOC(=O)c1ccc(NC(=O)C(C)(CCl)SC)cc1", "note": "(configuration not stated)", "GFP signal change (wild-type ribosome)": "inactive: -0.796%"}
{"molecule": "CCOC(=O)c1ccc(NP(C)(=O)Oc2ccc(OC)cc2)cc1", "note": "(configuration not stated)", "GFP signal change (wild-type ribosome)": "inactive: 6.28%"}
{"molecule": "CP(=O)(Nc1ccccn1)Oc1ccc(Cl)cc1", "note": "(configuration not stated)", "GFP signal change (wild-type ribosome)": "inactive: 14%"}
{"molecule": "COP1(=S)c2c(C)nn(CCC#N)c2N=C(c2ccc(F)cc2)N1C", "note": "(configuration not stated)", "GFP signal change (wild-type ribosome)": "inactive: -1.2%"}
{"molecule": "CP(=O)(Nc1ccc(SC(F)(F)F)cc1)Oc1ccc(Cl)cc1", "note": "(configuration not stated)", "GFP signal change (wild-type ribosome)": "inactive: -41.9%"}
{"molecule": "CP(=O)(Oc1ccccc1)OC(c1ccccc1)C(F)(F)F", "note": "(configuration not stated)", "GFP signal change (wild-type ribosome)": "inactive: 0.865%"}
{"molecule": "COC(=O)C1(C)COP(=O)(N2CCCC2)OC1", "note": "(configuration not stated)", "GFP signal change (wild-type ribosome)": "inactive: 5.76%"}
{"molecule": "CP(=O)(NC(=O)Nc1ccccc1)Oc1ccccc1", "note": "(configuration not stated)", "GFP signal change (wild-type ribosome)": "inactive: 3.82%"}
{"molecule": "O=C(Nc1ccncc1[N+](=O)[O-])c1ccc([N+](=O)[O-])cc1[N+](=O)[O-]", "GFP signal change (wild-type ribosome)": "inactive: -2.69%"}
{"molecule": "CCOC(=O)Nc1cccc([As](=O)(O)O)c1", "GFP signal change (wild-type ribosome)": "inactive: 30.1%"}
{"molecule": "O=P(Nc1ccccn1)(c1cccc2ccccc12)c1cccc2ccccc12", "GFP signal change (wild-type ribosome)": "inactive: 19.2%"}
{"molecule": "Cc1cc(SC(NC=O)C(Cl)(Cl)Cl)ncn1", "note": "(configuration not stated)", "GFP signal change (wild-type ribosome)": "inactive: 12.1%"}
{"molecule": "COc1ccccc1OP(C)(=O)Nc1ccccc1", "note": "(configuration not stated)", "GFP signal change (wild-type ribosome)": "inactive: 20.2%"}
{"molecule": "CP(=O)(Nc1ccccc1Br)Oc1ccccc1", "note": "(configuration not stated)", "GFP signal change (wild-type ribosome)": "inactive: 7.32%"}
{"molecule": "O=[N+]([O-])c1ccc(Nc2ccc(Oc3ccc([N+](=O)[O-])cc3[N+](=O)[O-])cc2)c([N+](=O)[O-])c1", "GFP signal change (wild-type ribosome)": "inactive: -4.37%"}
{"molecule": "O=C(O)C(=O)c1ccc(N(CCCl)CCCl)cc1.c1ccc(Nc2ccccc2)cc1", "GFP signal change (wild-type ribosome)": "inactive: -3.31%"}
{"molecule": "CCOC(=O)Nc1ccc([As](=O)(O)O)c(O)c1", "GFP signal change (wild-type ribosome)": "inactive: 11.6%"}
{"molecule": "CC1CCNP(=O)(N(CCCl)CCCl)O1", "note": "(configuration not stated)", "GFP signal change (wild-type ribosome)": "inactive: 5.81%"}
{"molecule": "COP(=O)(OC)N1CC1c1ccccc1", "note": "(configuration not stated)", "GFP signal change (wild-type ribosome)": "inactive: 6.8%"}
{"molecule": "CCCCOc1ccc(C(=O)NCC2(N3CCCCC3)CCCCC2)cc1OC", "GFP signal change (wild-type ribosome)": "inactive: 3.76%"}
{"molecule": "CN1CCCCC1COC(=O)C1(O)c2ccccc2CCc2ccccc21", "note": "(configuration not stated)", "GFP signal change (wild-type ribosome)": "inactive: 3.38%"}
